Data from paper PMC6149822, “A New Series of Pyrrole-Based Chalcones: Synthesis and Evaluation of Antimicrobial Activity, Cytotoxicity, and Genotoxicity” (Molecules : A Journal of Synthetic Chemistry and Natural …, 2017).

What was measured:
Assay in all cases: MTT assay
Type in all cases: cell-based
C6 rat glioma cell line = conditions: SI = IC50 NIH/3T3 / IC50 C6; >value taken as the value
Procedure: (§1) The anticancer effects of compounds 1–10 on A549 human lung adenocarcinoma (ATCC® CCL-185™), HepG2 human hepatocellular carcinoma (ATCC® HB-8065™), and C6 rat glioma (ATCC® CCL107™) cell lines were assessed using 3-(4,5-Dimethylthiazol-2-yl)-2,5-diphenyltetrazolium bromide (MTT) assay, whereas the selectivity of compounds 1–10 was tested using NIH/3T3 mouse embryonic fibroblast cell line (ATCC® CRL-1658™, London, UK). All cell lines were incubated according to the supplier’s recommendations. The cells were seeded as 1 × 10^4 cells into each well of the 96-well plates. MTT assay was performed as previously described. The compounds were tested between the concentrations equal to 1 mM and 0.000316 mM (1.0, 0.316, 0.10, 0.0316, 0.01, 0.00316, 0.001, 0.000316 mM). Stock solutions of compounds were prepared in dimethyl sulfoxide (DMSO) and further dilutions were made with fresh culture medium. The final DMSO concentration was under 1% [34] and cisplatin was used as a positive control. Inhibition % was calculated for each concentration according to the formula below, and IC50 values were determined by plotting a dose–response curve of inhibition % versus compound concentrations tested. All experiments were performed in quadruplicate.Inhibition % = 100 − [(ODtest compound − ODblank/ODsolvent control − ODblank)] × 100(1)

[1] = system: HepG2 human hepatocellular carcinoma cell line; conditions: SI = IC50 NIH/3T3 / IC50 HepG2; >value taken as the value
Procedure: as §1

[2] = system: A549 human lung adenocarcinoma cell line; conditions: SI = IC50 NIH/3T3 / IC50 A549; >value taken as the value
Procedure: as §1

N.N.[Cl][Pt][Cl] [Cisplatin, reference compound]
SI Values C6 Cell Line (C6 rat glioma cell line): 6.520
SI Values HepG2 Cell Line [1]: 7.895
SI Values A549 Cell Line [2]: 15.789

Cn1cccc1C(=O)C=Cc1ccc(-c2ccc([N+](=O)[O-])cc2)o1 [Compound 1, 1-(1-Methyl-1H-pyrrol-2-yl)-3-(5-(4-nitrophenyl)furan-2-yl)prop-2-en-1-one]
SI Values C6 Cell Line (C6 rat glioma cell line): 1.298
SI Values HepG2 Cell Line [1]: 0.339
SI Values A549 Cell Line [2]: 363.33

Cn1cccc1C(=O)C=Cc1ccc(-c2cccc([N+](=O)[O-])c2)o1 [Compound 2, 1-(1-Methyl-1H-pyrrol-2-yl)-3-(5-(3-nitrophenyl)furan-2-yl)prop-2-en-1-one]
SI Values C6 Cell Line (C6 rat glioma cell line): 1.248
SI Values HepG2 Cell Line [1]: 1.162
SI Values A549 Cell Line [2]: 1

Cn1cccc1C(=O)C=Cc1ccc(-c2ccccc2[N+](=O)[O-])o1 [Compound 3, 1-(1-Methyl-1H-pyrrol-2-yl)-3-(5-(2-nitrophenyl)furan-2-yl)prop-2-en-1-one]
SI Values C6 Cell Line (C6 rat glioma cell line): 1
SI Values HepG2 Cell Line [1]: 11.926
SI Values A549 Cell Line [2]: 1

Cn1cccc1C(=O)C=Cc1ccc(-c2ccc(Cl)cc2[N+](=O)[O-])o1 [Compound 4, 1-(1-Methyl-1H-pyrrol-2-yl)-3-(5-(2-nitro-4-chlorophenyl)furan-2-yl)prop-2-en-1-one]
SI Values C6 Cell Line (C6 rat glioma cell line): 0.100
SI Values HepG2 Cell Line [1]: 0.360
SI Values A549 Cell Line [2]: 0.100

Cn1cccc1C(=O)C=Cc1ccc(-c2ccccc2Cl)o1 [Compound 5, 1-(1-Methyl-1H-pyrrol-2-yl)-3-(5-(2-chlorophenyl)furan-2-yl)prop-2-en-1-one]
SI Values C6 Cell Line (C6 rat glioma cell line): 0.145
SI Values HepG2 Cell Line [1]: 1.450
SI Values A549 Cell Line [2]: 0.145

Cn1cccc1C(=O)C=Cc1ccc(-c2cccc(Cl)c2)o1 [Compound 6, 1-(1-Methyl-1H-pyrrol-2-yl)-3-(5-(3-chlorophenyl)furan-2-yl)prop-2-en-1-one]
SI Values C6 Cell Line (C6 rat glioma cell line): 0.369
SI Values HepG2 Cell Line [1]: 0.388
SI Values A549 Cell Line [2]: 0.388

Cn1cccc1C(=O)C=Cc1ccc(-c2ccc(Cl)cc2)o1 [Compound 7, 1-(1-Methyl-1H-pyrrol-2-yl)-3-(5-(4-chlorophenyl)furan-2-yl)prop-2-en-1-one]
SI Values C6 Cell Line (C6 rat glioma cell line): 0.129
SI Values HepG2 Cell Line [1]: 1.739
SI Values A549 Cell Line [2]: 0.408

Cn1cccc1C(=O)C=Cc1ccc(-c2ccc(Cl)cc2Cl)o1 [Compound 8, 1-(1-Methyl-1H-pyrrol-2-yl)-3-(5-(2,4-dichlorophenyl)furan-2-yl)prop-2-en-1-one]
SI Values C6 Cell Line (C6 rat glioma cell line): 3.077
SI Values HepG2 Cell Line [1]: 2.613
SI Values A549 Cell Line [2]: 1.231

Cn1cccc1C(=O)C=Cc1ccc(-c2cc(Cl)ccc2Cl)o1 [Compound 9, 1-(1-Methyl-1H-pyrrol-2-yl)-3-(5-(2,5-dichlorophenyl)furan-2-yl)prop-2-en-1-one]
SI Values C6 Cell Line (C6 rat glioma cell line): 1
SI Values HepG2 Cell Line [1]: 1.079
SI Values A549 Cell Line [2]: 0.315

Cn1cccc1C(=O)C=Cc1ccc(-c2ccc(Cl)c(Cl)c2)o1 [Compound 10, 1-(1-Methyl-1H-pyrrol-2-yl)-3-(5-(3,4-dichlorophenyl)furan-2-yl)prop-2-en-1-one]
SI Values C6 Cell Line (C6 rat glioma cell line): 1.480
SI Values HepG2 Cell Line [1]: 1.480
SI Values A549 Cell Line [2]: 0.428
